Measurements published in article PMC3694859.

Molecular target: MBP-KguR-His6 (MBP-C5040-His6) (Escherichia coli CFT073 (UPEC)) (UniProt A0A0H2VD08)
Assay: EMSA
Details: recombinant protein; residues 1-452; protein details: N-terminal MBP (pMAL-c2x), C-terminal His6; probe letters rebuilt from the primers and the genome

TTAATCAGCGCGGCATGTTCAGTTATACCGGTTTAAGAACCGCTCAGGTTGACCGACTACGTGAAGAATTTGGTGTCTATCTCATCGCCAGCGGTCGCATGTGTGTCGCCGGGCTTAACGCGCAAAATGTGCATCGCGTGGCAAAGGCGTTTGCTGCGGTGATGTGATTTTAATCAACAGGCGGATCTCTCCGCCTGTTCCTGACTCCAGCCATCCCCTACTATTCTGTCCCTTTTTTCGCCCACTTTTACATCATCTCTTTTCTATAAGTTTTTGAAAATTAGTGTTTTTAACTGTTGGTACGG (double strand) [c5032 promoter]
binding result: binds
